The target in assay [1] is urease apoprotein (UreABC)3 (Klebsiella aerogenes). The assay is described as follows: pull-down.
Another assay concerns the target urease holoenzyme (Klebsiella aerogenes). Description: pull-down.

One molecule from publication PMC3788043 (Journal of the American Society for Mass Spectrometry, 2013) can be followed below.

B1: MBP-UreD:UreF(K165A):UreG complex (complex)
chain 1: MLPPLKKGWQATLDLRFHQAGGKTVLASAQHVGPLTVQRPFYPEEETCHLYLLHPPGGIVGGDELTISAHLAPGCHTLITMPGASKFYRSSGAQALVRQQLTLAPQATLEWLPQDAIFFPGANARLFTTFHLCASSRLLAWDLLCLGRPVIGETFSHGTLSNRLEVWVDNEPLLVERLHLQEGELSSIAERPWVGTLLCYPATDALLDGVRDALAPLGLYAGASLTDRLLTVRFLSDDNLICQRVMRDVWQFLRPHLTGKSPVLPRIWLT
chain 2: MSTAEQRLRLMQLASSNLPVGGYSWSQGLEWAVEAGWVLDVAAFERWQRRQMTEGFFTVDLPLFARLYRACEQGDIAAAQRWTAYLLACRETRELREEERNRGAAFARLLSDWQPDCPPPWRSLCQQSQLAGMAWLGVRWRIALPEMALSLGYSWIESAVMAGVALVPFGQQAAQQLILRLCDHYAAEMPRALAAPDGDIGSATPLAAIASARHETQYSRLFRS
chain 3: not shown
Take B1: the binding result (in assay [1]; with urease holoenzyme) was “binds” throughout.
